In patent US20240109955A1 (published 2024):

B1: E8 (antibody, V domains shown)
VH: QVTLRESGPALVKPTQTLTLTCTFSGFSLSTRGVCVSWIRQPPGKALEWLAFIDWDDDKYYNTSLKTRLTISKDTSKNQVVLTMTNVHPVDTATYYCARISSHHGSSWCTTFDYWGQGALVTVSA
VL: DTVMTQSPLSLPVTPGEPASISCRSSQSLLNSNGYNYLDWYVQKPGQSPQLLIYLGSNRASGVPDRFSGSGSGTDFTLKISRVEAEDVGVYYCMQPLQTPLFTFGPGTKVEIK
B2: E8 (antibody, V domains shown)
VH: B1 VH
VL: B1 VL
B3: B8 (antibody, V domains shown)
VH: EVQLVESGGALIQPGGSLRLSCAASGIIVSANYMSWVRQAPGKGLEWVSVIYSGGSTFYADSVKGRFTISRDNSKNTLYLEMNSLRAEDTAVYYCARDAPILGVSDWGQGTLVTVSS
VL: EIVMTQSPAILSVSPGERATLSCRASQSVAINLAWYQQKPGQAPRLLIYAASSRATGIPGRFSGSGSETNFTLTISSLQSGDFAVYYCQQYITWPPSYTFGQGTKLEIK
B4: MX1089 (antibody)
chain 1: QTVVTQEPSFSVSPGGTVTLTCGLSSGSVSTAYFPSWYQQTPGQAPRTLIYGTNTRSSGVPDRFSGSILGNKAALTITGAQADDESDYYCVLYMGRGIVVFGGGTKLTVLGGSSGEIVMTQSPAILSVSPGERATLSCRASQSVAINLAWYQQKPGQAPRLLIYAASSRATGIPGRFSGSGSETNFTLTISSLQSGDFAVYYCQQYITWPPSYTFGQGTKLEIKGGGGSGGSGSGGGGSASGSGEVQLVESGGALIQPGGSLRLSCAASGIIVSANYMSWVRQAPGKGLEWVSVIYSGGSTFYADSVKGRFTISRDNSKNTLYLEMNSLRAEDTAVYYCARDAPILGVSDWGQGTLVTVSSGGSSGQVQLVESGGGVVQPGRSLRLSCAASGFTLSSYGMHWVRQAPGKGLEWVAVISYDGSNKYYVDSVKGRFTISRDNSKNTLYLQMNSLRAEDTAVYYCRWAYWELLPDYYYGMDVWGQGTTVTVSSASGGSGDKTHTCPPCPAPELLGGPSVFLFPPKPKDTLMISRTPEVTCVVVDVSHEDPEVKFNWYVDGVEVHNAKTKPREEQYNSYVVSVLTVLHQDWLNGKEYKCKVSNKALPAPIEKTISKAKGQPREPQVYTLPPCRDELTKNQVSLWCLVKGFYPSDIAVEWESNGQPENNYKTTPPVLDSDGSFFKKLTVDKSRWQQGNVFSCSVLHEALHSHYTQKSLSLSPG
chain 2: DTVMTQSPLSLPVTPGEPASISCRSSQSLLNSNGYNYLDWYVQKPGQSPQLLIYLGSNRASGVPDRFSGSGSGTDFTLKISRVEAEDVGVYYCMQPLQTPLFTFGPGTKVEIKGGSSGEIVLTQSPGTLSLSPGERATLSCRASQSVSSSYLAWYQQKPGQAPRLLIYSASSRATGIPDRFSGSGSGTDFTLTISRLEPEDFAVYFCQQYVGLTGWTFGQGTKVEIKGGGGSGGSGSGGGGSASGSGQMQLVQSGPEVKKPGTSVKVSCKASGFTFTSSAVQWVRQRQRLEWIGWIVVGSGNTNYAQKFQERVTITRDMSTSTAYMELSSLRSEDTAVYYCAAPNCSNVVCYDGFDIWGQGTMVTVSSGGSSGQVTLRESGPALVKPTQTLTLTCTFSGFSLSTRGVCVSWIRQPPGKALEWLAFIDWDDDKYYNTSLKTRLTISKDTSKNQVVLTMTNVHPVDTATYYCARISSHHGSSWCTTFDYWGQGALVTVSAASGGSGDKTHTCPPCPAPELLGGPSVFLFPPKPKDTLMISRTPEVTCVVVDVSHEDPEVKFNWYVDGVEVHNAKTKPREEQYNSYVVSVLTVLHQDWLNGKEYKCKVSNKALPAPIEKTISKAKGQPREPQVCTLPPSRDELTKNQVSLSCAVKGFYPSDIAVEWESNGQPENNYKTTPPVLDSDGSFFLVSKLTVDKSRWQQGNVFSCSVLHEALHSHYTQKSLSLSPG
B5: MX1206 (antibody)
chain 1: QTVVTQEPSFSVSPGGTVTLTCGLSSGSVSTAYFPSWYQQTPGQAPRTLIYGTNTRSSGVPDRFSGSILGNKAALTITGAQADDESDYYCVLYMGRGIVVFGGGTKLTVLGGSSGEIVLTQSPGTLSLSPGETATLSCRASQSFSSDLAWYQQKPGQAPRLLIYGASSRATGIPDRFSGSGSGTDFTLTISRLEPADFAVYYCQQYGSSPPVTFGGGTKVEIKGGGGSGGSGSGGGGSASGSGEVQLVESGGGLIQPGGSLRLSCAASGVIVSYNYMNWVRQAPGKGLEWVSVIYSGGSTFYADSVRGRFTISRDNSKNTLYLQMNSLRAEDTAVYYCARDLGPAGAFDIWGLGTMVTVSSGGSSGQVQLVESGGGVVQPGRSLRLSCAASGFTLSSYGMHWVRQAPGKGLEWVAVISYDGSNKYYVDSVKGRFTISRDNSKNTLYLQMNSLRAEDTAVYYCRWAYWELLPDYYYGMDVWGQGTTVTVSSASGGSGDKTHTCPPCPAPELLGGPSVFLFPPKPKDTLMISRTPEVTCVVVDVSHEDPEVKFNWYVDGVEVHNAKTKPREEQYNSYVVSVLTVLHQDWLNGKEYKCKVSNKALPAPIEKTISKAKGQPREPQVYTLPPCRDELTKNQVSLWCLVKGFYPSDIAVEWESNGQPENNYKTTPPVLDSDGSFFKKLTVDKSRWQQGNVFSCSVLHEALHSHYTQKSLSLSPG
chain 2: B4 chain 2
B6: E12 (antibody, V domains shown)
VH: EVQLVESGGGLIQPGGSLRLSCAASGVIVSYNYMNWVRQAPGKGLEWVSVIYSGGSTFYADSVRGRFTISRDNSKNTLYLQMNSLRAEDTAVYYCARDLGPAGAFDIWGLGTMVTVSS
VL: EIVLTQSPGTLSLSPGETATLSCRASQSFSSDLAWYQQKPGQAPRLLIYGASSRATGIPDRFSGSGSGTDFTLTISRLEPADFAVYYCQQYGSSPPVTFGGGTKVEIK
B7: E12 (antibody, V domains shown)
VH: B6 VH
VL: B6 VL

Key:
Assay in all cases: cell-based or functional assay
[1] = target: SARS-CoV-2 Omicron BA.4/5 spike protein (SARS-CoV-2, UniProt P0DTC2 14-1273)
[2] = target: SARS-CoV-2 Omicron BQ.1.1 spike protein (SARS-CoV-2, UniProt P0DTC2 14-1273)
[3] = target: SARS-CoV-2 Omicron XBB spike protein (SARS-CoV-2, UniProt P0DTC2 14-1273)
[4] = target: SARS-CoV-2 Omicron BA.2.75.2 spike protein (SARS-CoV-2, UniProt P0DTC2 14-1273)
[5] = target: SARS-CoV-2 Omicron BA.2.75.2 spike protein (SARS-CoV-2)
[6] = target: SARS-CoV-2 Omicron BA.4/5 spike protein (SARS-CoV-2)
[7] = target: SARS-CoV-2 Omicron BQ.1.1 spike protein (SARS-CoV-2)
[8] = target: SARS-CoV-2 Omicron BQ.1 spike protein (SARS-CoV-2)
[9] = target: SARS-CoV-2 Omicron XBB spike protein (SARS-CoV-2)
[10] = target: SARS-CoV-2 spike protein, Omicron BF.7 (SARS-CoV-2)

Row | Binder | IC50, pseudovirus neutralization [1] [ng/mL] | IC80, pseudovirus neutralization [1] [ng/mL] | IC50, pseudovirus neutralization [2] [ng/mL] | IC80, pseudovirus neutralization [2] [ng/mL] | IC50, pseudovirus neutralization [3] [ng/mL] | IC80, pseudovirus neutralization [3] [ng/mL] | IC50, pseudovirus neutralization [4] [ng/mL] | IC80, pseudovirus neutralization [4] [ng/mL] | also measured
1 | B1 | 0.13 | 0.49 | 496 | 1800 | 61.5 | 705 | 1.72 | 5.9 | –
2 | B2 | – | – | – | – | – | – | – | – | IC50, pseudovirus neutralization [5]: 1.72 ng/mL; IC80, pseudovirus neutralization [5]: 5.9 ng/mL; IC50, pseudovirus neutralization [6]: 0.13 ng/mL; IC80, pseudovirus neutralization [6]: 0.49 ng/mL; IC50, pseudovirus neutralization [7]: 496 ng/mL; IC80, pseudovirus neutralization [7]: 1800 ng/mL; IC50, pseudovirus neutralization [8]: 124 ng/mL; IC80, pseudovirus neutralization [8]: 5190 ng/mL; IC50, pseudovirus neutralization [9]: 61.5 ng/mL; IC80, pseudovirus neutralization [9]: 705 ng/mL
3 | B3 | 6.97 | 14.8 | 4.57 | 21.7 | 13.4 | 47.2 | 12.2 | 27.4 | –
4 | B4 | – | – | – | – | – | – | – | – | IC50, pseudovirus neutralization [10]: 22.6 ng/mL; IC80, pseudovirus neutralization [10]: 64.3 ng/mL
5 | B5 | – | – | – | – | – | – | – | – | IC50, pseudovirus neutralization [10]: 20.1 ng/mL; IC80, pseudovirus neutralization [10]: 36.4 ng/mL
6 | B6 | 4.62 | 9.21 | 5.29 | 17.4 | 12.7 | 31.1 | 6.99 | 40.1 | –
7 | B7 | – | – | – | – | – | – | – | – | IC50, pseudovirus neutralization [5]: 6.99 ng/mL; IC80, pseudovirus neutralization [5]: 40.1 ng/mL; IC50, pseudovirus neutralization [6]: 4.62 ng/mL; IC80, pseudovirus neutralization [6]: 9.21 ng/mL; IC50, pseudovirus neutralization [7]: 5.29 ng/mL; IC80, pseudovirus neutralization [7]: 17.4 ng/mL; IC50, pseudovirus neutralization [8]: 11.9 ng/mL; IC80, pseudovirus neutralization [8]: 40.9 ng/mL; IC50, pseudovirus neutralization [9]: 12.7 ng/mL; IC80, pseudovirus neutralization [9]: 31.1 ng/mL
